Tested on: Promastigotes of L. mexicana (MNYC/BZ/62/M379)
Experiment: Biological activity against promastigotes, resazurin
Type: cell-based, Leishmania mexicana
Conditions: SI = CC50/IC50, J774.2 versus promastigotes
Description: Promastigotes of L. mexicana (MNYC/BZ/62/M379 reference strain) were grown in Schneider’s medium supplemented with fetal bovine serum 10% (v/v), ampicillin (100 U/mL)/streptomycin (100 µg/mL). Parasites were collected at log phase to assess the compounds and 5 × 10^5 promastigotes were seeded in a 96-wells plate. Compounds were previously dissolved in dimethyl sulfoxide (DMSO) up to a concentration of 1 mg/mL. Thereafter, serial dilutions were made with culture medium from 100 µg/mL to 0.8 µg/mL and then they were added to the wells by triplicates. Parasites non treated and treated with Glucantime, Amphotericin B and Miltefosine were included as […]. Parasites were incubated at 26 °C during 48 h and resazurin 2.5 mM was added at the end into each well. Afterwards, fluorescence intensity was measured with excitation/emission 535/590 nm in a spectrofluorometer (Infinite 200, Tecan Group Ltd., Mannedorf, Switzerland). Finally, half maximal inhibitory concentration (IC50) was determined through a Probit analysis. The assays were made by triplicate in 3 independent experiments.

| SMILES | SI Promastigotes |
| --- | --- |
| C[C@@H]1[C@H](O)[C@@H](C)/C=C/C=C/C=C/C=C/C=C/C=C/C=C/[C@H](O[C@@H]2O[C@H](C)[C@@H](O)[C@H](N)[C@@H]2O)C[C@@H]2O[C@](O)(C[C@@H](O)C[C@@H](O)[C@H](O)CC[C@@H](O)C[C@@H](O)CC(=O)O[C@H]1C)C[C@H](O)[C@H]2C(=O)O [Amphotericin B] | 8.3 |
| CCCCCCCCCCCCCCCCOP(=O)([O-])OCC[N+](C)(C)C [Miltefosine] | 17.4 |
